Compound potency records, mixed from different reports. Data source: NIAID ChemDB in PubChem.

All rows: whole-cell or culture tests; agent: Influenza A virus

Blank or dashed fields: not listed here. Lines come from different laboratories, so protocols vary. a–b is a range or a potency band. ECn is the concentration giving n% inhibition of infection, replication or growth.

structure	method	cells	read-out	strain or isolate	value
N=C(N)c1ncn([C@@H]2O[C@H](CO)[C@@H](O)[C@H]2O)n1	neutral red	MDCK	EC50	Influenza A/Sydney/05/97 (H3N2)	23 µg/mL
Nc1ncnc2c1ncn2[C@@H]1C[C@@H](O)[C@H](CO)O1	-	MDCK	EC50	-	>100 µM
CC#Cc1cn([C@@H]2O[C@H](COP(=O)(O)Oc3ccccc3)[C@@H](O)[C@@H]2O)c(=O)[nH]c1=O	plaque count	MDCK	EC50	H1N1 A/Sweden/3/50	>100 µM
Nc1ccc(S(=O)(=O)O)c2cccc(S(=O)(=O)O)c12	cytopathic effect	MDCK	EC50	Influenza A/Ishikawa/7/82 (H3N2)	>200 µM
Cc1cn([C@@H]2C[C@@H](O)[C@H](CO)O2)c(=O)[nH]c1=O	-	MDCK	EC50	-	>100 µM
Cc1ccccc1NC(=O)CSc1sc(N)nc1-c1ccc(Br)cc1Br	cytopathic effect	MDCK cells	EC50	H1N1 A/PR/8/34	0.97 µM
NC(=O)c1ncn([C@@H]2O[C@H](CO)[C@@H](O)[C@H]2O)n1	plaque count	MDCK	EC50	H3N2 HONG KONG/1/68	2.9 µg/mL
O=[N+]([O-])c1ccc(N2CC[N+]3(CC2)CC[N+]2(CCN(c4ccc([N+](=O)[O-])c5nonc45)CC2)CC3)c2nonc12	cytopathic effect	MDCK	EC50	-	>70 µg/mL
C[C@@H]1CCC[C@@H]2C[C@@H](NC(=O)c3cc(C(F)(F)F)ccc3O)CCN21	plaque count	MDBK	EC50	H1N1 A/WSN/33	>20 µg/mL
CO/N=C(/C#N)C(=O)NCC1=NOC(C)(C)C1	cytopathic effect	MDCK	EC50	A/WSN/33	>100 µg/mL
NC(=O)c1nc(F)c[nH]c1=O	plaque count	MDCK	EC50	H1N1 A/PR/8/34	1 µM
CC(=O)N[C@H]1[C@H]([C@H](O)[C@H](O)CO)OC(C(=O)O)=C[C@@H]1N=C(N)N	plaque count	MDCK	EC50	A/Victoria/3/75	0.008 µM
CC#Cc1cn([C@@H]2O[C@H](CO)[C@@H](O)[C@@H]2O)c(=O)[nH]c1=O	plaque count	MDCK	EC50	H1N1 A/Sweden/3/50	>100 µM
COc1cc(OC)n2sc(=NC(=O)COc3ccc(Cl)cc3Cl)nc2n1	plaque count	MDCK	EC50	H1N1	>20 µM
Cc1cc(N2CC[N+](C)(C)CC2)c([N+](=O)[O-])c(N2CC[N+](C)(C)CC2)c1	cytopathic effect	MDCK	EC50	-	>70 µg/mL
Nc1ccn([C@@H]2C[C@H](CO)[C@@H](O)[C@H]2O)c(=O)n1	cytopathic effect	MDCK	EC50	-	4.5 µg/mL
CC#Cc1cn([C@@H]2O[C@H](COP(=O)(O)OCC(F)(F)F)[C@@H](O)[C@@H]2O)c(=O)[nH]c1=O	plaque count	MDCK	EC50	H1N1 A/Sweden/3/50	>100 µM
C[C@@H]1CCC[C@@H]2C[C@@H](NC(=O)c3cc(Cl)c(N)cc3O)CCN21	plaque count	MDBK	EC50	H1N1 A/WSN/33	1–3 µg/mL
N#Cc1ccc(N2CC[N+]3(CC2)CC[N+]2(CCN(c4ccc(C#N)cc4[N+](=O)[O-])CC2)CC3)c([N+](=O)[O-])c1	cytopathic effect	MDCK	EC50	-	>70 µg/mL
CCNC(=O)NC(=O)/C(C#N)=N/OC	cytopathic effect	MDCK	EC50	A/WSN/33	>100 µg/mL
NC(=O)c1ncn([C@@H]2O[C@H](CO)[C@@H](O)[C@H]2O)n1	cytopathic effect	MDCK	EC50	Influenza A/Ishikawa/7/82 (H3N2)	4 µg/mL
C[C@@H]1CCC[C@@H]2C[C@@H](NC(=O)c3ccc(N)cc3O)CCN21	plaque count	MDBK	EC50	H1N1 A/WSN/33	>20 µg/mL
CC(N)C12CC3CC(CC(C3)C1)C2	-	MDCK	EC50	H1N1 A/FM/1/47	0.62 µM
CC(=O)N[C@@H]1[C@@H](N=C(N)N)C=C(C(=O)O)O[C@H]1C[C@H](O)CO	plaque count	-	EC50	A/Yamagata/32/89	0.004 µg/mL
Cc1cc(=O)c2c(O)c3c(O)cc(O)c4c5c(O)cc(O)c6c(O)c7c(=O)cc(C)c8c1c2c(c34)c(c65)c78	cytopathic effect	MDCK	EC50	A/Brazil	>100 µg/mL
O=C(NCCc1c[nH]c2ccccc12)C1=Cc2ccncc2CC1	cytopathic effect	MDCK	EC50	-	>32 µM
C=C1[C@H](CO)[C@@H](O)C[C@@H]1n1cnc2c(=O)[nH]c(N)nc21	-	MDBK	EC50	H1N1 A/WSN/33 (H1N1)	>80 µM
COc1ccc(O)c(C(=O)N[C@H]2CCN3[C@H](CCC[C@H]3C)C2)c1	plaque count	MDBK	EC50	H1N1 A/WSN/33	0.6 µg/mL
O=C(O[C@@H]1Cc2c(O)cc(O)cc2O[C@@H]1c1cc(O)c(=O)c2c(O)c(O)cc([C@H]3Oc4cc(O)cc(O)c4C[C@H]3OC(=O)c3cc(O)c(O)c(O)c3)c2c1)c1cc(O)c(O)c(O)c1	plaque count	MDCK	EC50	H1N1 A/Yamagata/120/86	50 µM
CC(N)C12CC3CC(CC(C3)C1)C2	neutral red	MDCK	EC50	Influenza A/Sydney/05/97 (H3N2)	0.09 µM
NC(=O)c1ncn([C@@H]2O[C@H](CO)[C@@H](O)[C@H]2O)n1	plaque count	MDCK	EC50	Influenza A/Ishikawa/7/82 (H3N2)	8.4 µg/mL
C[C@@H](O)C1=C[C@@H](n2cnc3c(N)ncnc32)[C@H](O)[C@@H]1O	plaque count	MDCK	EC50	A/Bangkok/10/83 (H1N1)	>100 µg/mL
Cc1nc(Cl)c([N+](=O)[O-])c(N2CC[N+](C)(C)CC2)n1	cytopathic effect	MDCK	EC50	-	>70 µg/mL
CC#Cc1cn([C@@H]2O[C@H](COP(=O)(O)Oc3ccc(Cl)cc3)[C@@H](O)[C@@H]2O)c(=O)[nH]c1=O	plaque count	MDCK	EC50	H1N1 A/Sweden/3/50	100 µM
NC(=O)c1ncn([C@@H]2O[C@H](CO)[C@@H](O)[C@H]2O)n1	cytopathic effect	MDCK	EC50	Ishikawa	8 µg/mL
CC(C)CCCC(C)C1CCC2C3CC=C4CC(OC(=O)Nc5ccc(S(=O)(=O)O)c6cccc(S(=O)(=O)O)c56)CCC4(C)C3CCC12C	cytopathic effect	MDCK	EC50	Influenza A/Ishikawa/7/82 (H3N2)	7 µM
NC(=O)c1ncn([C@@H]2O[C@H](CO)[C@@H](O)[C@H]2O)n1	plaque count	MDCK	EC90	-	6.14 µg/mL
CCO[C@@H]([C@@H]1OC(C(=O)O)=C[C@H](N=C(N)N)[C@H]1NC(C)=O)[C@H](O)CO	plaque count	MDCK	EC50	A/Yamagata/32/89	0.007 µg/mL
C[C@H]1C[C@@H](n2cnc3c(N)ncnc32)[C@H](O)[C@@H]1O	cytopathic effect	MDCK	EC50	Ishikawa	>100 µg/mL
C=CCO/N=C(\C)C(=O)NCC1=NOC(C(C)(C)C)C1	cytopathic effect	MDCK	EC50	A/WSN/33	1–10 µg/mL
NC(=O)c1c[se]c([C@@H]2O[C@H](CO)[C@@H](O)[C@H]2O)n1	-	MDCK	EC50	H1N1 A/WSN	25 µM
NC(=O)c1ncn([C@@H]2O[C@H](CO)[C@@H](O)[C@H]2O)n1	plaque count	MDCK	EC50	B/Victoria/102/85	10 µM
COc1cc(NC(=O)Nc2cccc(CNC(=O)O[C@H]3CCOC3)c2)ccc1-c1cnco1	MTT	MDCK	EC50	-	>31 µM
C1C2C3CC4C1C1C2NC3C41	plaque count	MDCK	EC50	Influenza A/Victoria/3/75 (H3N2)	>25 µg/mL
CC(C)CCCC(C)C1CCC2C3CC=C4CC(OC(=O)Cl)CCC4(C)C3CCC12C	cytopathic effect	MDCK	EC50	Influenza A/Ishikawa/7/82 (H3N2)	>200 µM
CC#Cc1cn([C@@H]2O[C@H](COP(=O)(O)Oc3c(C)cccc3C)[C@@H](O)[C@@H]2O)c(=O)[nH]c1=O	plaque count	MDCK	EC50	H1N1 A/Sweden/3/50	>10 µM
CC(=O)N[C@H]1[C@H]([C@H](O)[C@H](O)CO)OC(C(=O)O)=C[C@@H]1N	plaque count	MDCK	EC50	H3N2 A/AICHI/2/68	0.65 µM
CC(=O)N[C@H]1[C@H]([C@H](O)[C@H](O)CO)OC(C(=O)O)=C[C@@H]1O	plaque count	MDCK	EC50	B/Victoria/102/85	10 µM
CC#Cc1cn([C@@H]2O[C@H](COP(=O)(O)Oc3cccc(Cl)c3)[C@@H](O)[C@@H]2O)c(=O)[nH]c1=O	plaque count	MDCK	EC50	H1N1 A/Sweden/3/50	10 µM
C[C@@H]1CCC[C@@H]2C[C@@H](NC(=O)c3cc(C(C)(C)C)ccc3O)CCN21	plaque count	MDBK	EC50	H1N1 A/WSN/33	>20 µg/mL
COc1ccc(/C=C2\N=C(CC(C)C)C(=O)N(O)C2=O)cc1	-	-	EC50	-	>10 µM
CC#Cc1cn([C@@H]2O[C@H](COP(=O)(O)OCC)[C@@H](O)[C@@H]2O)c(=O)[nH]c1=O	plaque count	MDCK	EC50	H1N1 A/Sweden/3/50	>100 µM
COc1ccc([C@@H]2CC(=O)c3c(O)cc(O[C@@H]4O[C@H](CO[C@@H]5O[C@@H](C)[C@H](O)[C@@H](O)[C@H]5O)[C@@H](O)[C@H](O)[C@H]4O[C@@H]4O[C@@H](C)[C@H](O)[C@@H](O)[C@H]4O)cc3O2)cc1	ELISA	-	EC50	H1N1 A/Taiwan/1/86	918 µg/mL
NC(=O)c1nc(F)c[nH]c1=O	plaque count	MDCK	EC50	Influenza A/Kitakyushu/159/93 (H3N2)	0.48 µg/mL
ClCN1CC[N+]2(CC1)CC[N+]1(CCN(CCl)CC1)CC2	cytopathic effect	MDCK	EC50	-	>70 µg/mL
CO/N=C(\C#N)C(=O)NCc1cccs1	cytopathic effect	MDCK	EC50	A/WSN/33	>100 µg/mL
CCCCCCCC(=O)N[C@@H]([C@@H]1OC(C(=O)O)=C[C@H](N=C(N)N)[C@H]1NC(C)=O)[C@H](O)CO	plaque count	-	EC50	A/Yamagata/32/89	0.08 µg/mL
CC(=O)Nc1c(N=C(N)N)cc(C(=O)O)cc1[C@H](O)[C@H](O)CO	cytopathic effect	MDCK	EC50	Influenza A/Shandong/09/93 (H3N2)	65 µM
NC12CC3CC(CC(C3)C1)C2	cytopathic effect	MDCK	EC50	A/NWS/33	9 µg/mL
CSc1nc(Cl)c([N+](=O)[O-])c(N2CC[N+]3(CC2)CC[N+]2(CCN(c4nc(SC)nc(Cl)c4[N+](=O)[O-])CC2)CC3)n1	cytopathic effect	MDCK	EC50	-	>70 µg/mL

The last 3 rows once more:

structure,method,cells,read-out,strain or isolate,value
CC(=O)Nc1c(N=C(N)N)cc(C(=O)O)cc1[C@H](O)[C@H](O)CO,cytopathic effect,MDCK,EC50,Influenza A/Shandong/09/93 (H3N2),65 µM
NC12CC3CC(CC(C3)C1)C2,cytopathic effect,MDCK,EC50,A/NWS/33,9 µg/mL
CSc1nc(Cl)c([N+](=O)[O-])c(N2CC[N+]3(CC2)CC[N+]2(CCN(c4nc(SC)nc(Cl)c4[N+](=O)[O-])CC2)CC3)n1,cytopathic effect,MDCK,EC50,-,>70 µg/mL